Compound potency records, mixed from different reports. Data source: NIAID ChemDB in PubChem.

Common to all: whole-cell or culture tests; species: Hepatitis C virus; read-out: EC50

ECn is the concentration giving n% inhibition of infection, replication or growth. Rows are shuffled and stem from different studies. Blank or dashed fields: not listed here.

SMILES,strain,read by,value
CCCCCCOc1ccc(N(C(N)=O)c2nc(-c3ccc(F)cc3)cs2)cc1,,,<1 µM
CC(=O)N1c2cccc(O)c2NC2=C(C(=O)CC(C)(C)C2)C1c1ccc(C(F)(F)F)cc1F,1b,luciferase / reporter gene / replicon,3.75 µM
O=C(O)c1c(-c2ccc[nH]c2=O)c2c3c(ccc2n1Cc1ccccc1F)CCCO3,,replicon,<1 µM
CN1CCN(c2cc3c(cc2F)c(=O)c(-c2noc(C(CCCC(N)=O)c4ccccc4)n2)cn3Cc2ccc(C(F)(F)F)cc2F)CC1,1b,replicon,>10 µM
CCCCCCCCc1ccc(N(C(C)=O)c2nc(-c3cccnc3)c(F)s2)cc1C(F)(F)F,,,<1 µM
O=C(NS(=O)(=O)C1CC1)c1c(-c2ccc[nH]c2=O)c2c3ccccc3c(F)cc2n1Cc1ccccc1F,,replicon,<1 µM
NC(=O)COc1ccc2c(c1)S(=O)(=O)N=C(c1c(O)c3cc(F)ccc3n(CCC3CC3)c1=O)N2,1a 5904,replicon,0.5 µM
CC1(C)CC(=O)C2=C(C1)Nc1c(O)cccc1NC2c1c(Cl)cccc1Cl,1b,luciferase / reporter gene / replicon,11.87 µM
O=C(NS(=O)(=O)C1CC1)c1c(-c2ccc[nH]c2=O)c2c3c(ccc2n1Cc1ccccc1F)CCCO3,,replicon,<1 µM
NS(=O)(=O)c1ccc(CNc2nc(OC3CC3)c3nc(-c4ccc(F)cc4)ccc3n2)cc1,,replicon,<0.1 µM
CN1CCN(c2cc3c(cc2F)c(=O)c(-c2noc(Cc4ccccc4CC(=O)O)n2)cn3Cc2ccc(Cl)cc2)CC1,1b,replicon,<2 µM
COc1ccc(-c2ocnc2C(=O)N2c3cccc(O)c3NC3=C(C(=O)CC(C)(C)C3)C2c2ccc(OCc3ccccc3)cc2F)cc1,1b,luciferase / reporter gene / replicon,2.8 µM
CCOc1nc(NCc2ccc(F)cc2)nc2ccc(-c3ccc(NC(=O)N4CCCC4)cc3)nc12,,replicon,<0.1 µM
Cc1ccccc1Cn1c(C(=O)NS(C)(=O)=O)c(-c2ccc[nH]c2=O)c2c3occc3ccc21,,replicon,<0.5 µM
CC(C)(c1ccc(F)cc1)c1nc(-c2cn(Cc3ccc(C(F)(F)F)cc3)c3cc(N4CCSCC4)c(F)cc3c2=O)no1,1b,replicon,<0.5 µM
CCOc1nc(NCc2ccc(S(N)(=O)=O)cc2)nc2ccc(-c3ccc(F)c(S(N)(=O)=O)c3)nc12,,replicon,<0.1 µM
CC(=O)N1c2cccc(O)c2NC2=C(C(=O)CC(C)(C)C2)C1c1ccc(S(C)(=O)=O)cc1Cl,1b,luciferase / reporter gene / replicon,>100 µM
Cc1ccc(Cn2c(C(=O)NS(C)(=O)=O)c(-c3ccc[nH]c3=O)c3c4occc4ccc32)c(C)c1,,replicon,<0.5 µM
CCCCCOc1ccc(N(C(=O)COC(C)=O)c2nc(-c3ccc(F)c(F)c3)cs2)cc1C(F)(F)F,,,<1 µM
NS(=O)(=O)c1ccc(CNc2nc(NCC(F)(F)F)c3nc(-c4ccc(F)c(S(N)(=O)=O)c4)ccc3n2)cc1,,replicon,<0.1 µM
COc1ccc2ccccc2c1C1Nc2cccc(O)c2NC2=C1C(=O)CC(C)(C)C2,1b,luciferase / reporter gene / replicon,>32 µM
CN1CCN(c2cc3c(cc2F)c(=O)c(-c2noc(Cc4cc(F)cc(F)c4)n2)cn3Cc2ccc(Cl)cc2)CC1,1b,replicon,<10 µM
CC(C)COc1ccc(N(C(N)=O)c2nc(-c3ccc4c(c3)NC(=O)CO4)cs2)cc1C(F)(F)F,,,<1 µM
CC1(C)CC(=O)C2=C(C1)Nc1c(O)cccc1NC2c1c(Cl)nc2sccn12,1b,luciferase / reporter gene / replicon,>10 µM
O=C(O)Cc1ccc2c(c1)c(=O)c(-c1noc(Cc3ccccc3)n1)cn2Cc1ccc(C(F)(F)F)cc1F,1b,replicon,<0.5 µM
CC1CCC(C(=O)N(c2cc(-c3ccc(NC(=O)c4ccc(CO)o4)cc3)sc2C(=O)O)C(C)C)CC1,1b,replicon,<0.5 µM
CCCCCCCC(F)(F)c1ccc(N(C(C)=O)c2nc(-c3cccnc3)cs2)cc1,,,<1 µM
COCCN(C(=O)C1CCC(C)CC1)c1cc(-c2ccc(NC(=O)c3cn(C)cn3)cc2)sc1C(=O)O,1b,replicon,<0.5 µM
O=C(NS(=O)(=O)C1CC1)c1c(-c2ccc[nH]c2=O)c2c3occc3c(F)cc2n1Cc1cc([N+](=O)[O-])ccc1F,,replicon,<0.5 µM
CCCCCOc1ccc(N(C(=O)C(=O)OC)c2nc(-c3cccnc3)cs2)cc1F,,,<1 µM
Cc1noc(C)c1C(=O)Nc1ccc(-c2cc(N(C(=O)C3CCC(C)CC3)C(C)C)c(C(=O)O)s2)cc1,1a,replicon,>0.5 µM
CC(=O)N1c2cccc(O)c2NC2=C(C(=O)CC(C)(C)C2)C1c1ccc(OCc2ccccc2)cc1Cl,1b,luciferase / reporter gene / replicon,1.43 µM
NS(=O)(=O)c1ccc(CNc2nc(NCC(F)(F)F)c3nc(-c4ccc(C(=O)NC5CC5)cc4)ccc3n2)cc1,,replicon,<0.1 µM
CCCCCCCCOc1ccc(N(C(=O)C(C)OC(C)=O)c2nc(-c3ccc(C)nc3)cs2)cc1,,,<1 µM
CC1CCC(C(=O)N(c2cc(-c3ccc(NC(=O)c4cnn(C)c4)cc3)sc2C(=O)O)C(C)C)CC1,1b,replicon,<0.5 µM
CC1(C)CC(=O)C2=C(C1)Nc1c(O)cccc1N(C(=O)CC(=O)O)C2c1ccc(Cl)cc1Cl,1b,luciferase / reporter gene / replicon,32.21 µM
CCN(C(=O)C1CCC(C)CC1)c1cc(-c2ccc(NC(=O)c3cscn3)cc2)sc1C(=O)O,1a,replicon,<0.5 µM
CN1CCN(c2cc3c(cc2F)c(=O)c(-c2noc(Cc4ccccc4)n2)cn3CCN2CCOCC2)CC1,1b,replicon,>10 µM

5 of the rows above, restated:

SMILES,strain,read by,value
CC(C)(c1ccc(F)cc1)c1nc(-c2cn(Cc3ccc(C(F)(F)F)cc3)c3cc(N4CCSCC4)c(F)cc3c2=O)no1,1b,replicon,<0.5 µM
NS(=O)(=O)c1ccc(CNc2nc(OC3CC3)c3nc(-c4ccc(F)cc4)ccc3n2)cc1,,replicon,<0.1 µM
CC(C)COc1ccc(N(C(N)=O)c2nc(-c3ccc4c(c3)NC(=O)CO4)cs2)cc1C(F)(F)F,,,<1 µM
CCCCCCCCc1ccc(N(C(C)=O)c2nc(-c3cccnc3)c(F)s2)cc1C(F)(F)F,,,<1 µM
CC1(C)CC(=O)C2=C(C1)Nc1c(O)cccc1NC2c1c(Cl)cccc1Cl,1b,luciferase / reporter gene / replicon,11.87 µM